For one experiment, the system named is P. falciparum D6. Nature of the experiment: Malaria SYBR Green Fluorescence Assay, D6 strain. Type of experiment: cell-based, Plasmodium falciparum.
A further experiment has as its system P. falciparum C235. In words: Malaria SYBR Green Fluorescence Assay, C235 strain. Type of experiment: cell-based, Plasmodium falciparum.
In another experiment the test system is P. falciparum W2. Nature of the experiment: Malaria SYBR Green Fluorescence Assay, W2 strain. Format: cell-based, Plasmodium falciparum.
The next experiment relates to P. berghei. Nature of the experiment: Thompson Test, in vivo mouse malaria assay. On the set-up: species or system mice (ICR strain). To be noted: (80 × 3): 80 mg/kg for 3 days.

For the substance “CC(C)(CNc1nc(nc(n1)C(Cl)(Cl)Cl)c2ccc(cc2)S(═O)(═O)C)CN3CCCCCC3”, the “D6 (SYBR Green Assay IC50)” value in the experiment on P. falciparum D6 was 0.338 µg/mL. Besides, in the experiment with P. falciparum C235, the “C235 (SYBR Green Assay IC50)” value amounted to 0.609 µg/mL. Moreover, the “W2 (SYBR Green Assay IC50)” value in the experiment on P. falciparum W2 stood at 0.196 µg/mL.
On to “CN1CCN(CC1)c2ccc(Nc3nc(nc(n3)C(Cl)(Cl)Cl)c4ccc(cc4)S(═O)(═O)C)cc2”, for which, in the experiment on P. falciparum D6, the “D6 (SYBR Green Assay IC50)” value worked out at 0.03 µg/mL. The “C235 (SYBR Green Assay IC50)” value in the experiment with P. falciparum C235 worked out at 0.033 µg/mL. Also, the “W2 (SYBR Green Assay IC50)” value in the experiment with P. falciparum W2 came out at 0.018 µg/mL. Also, the “In vivo Results Thompson Assay (n/N Cures or Suppressive)” value in the experiment on P. berghei is given as “(80 × 3) Suppressive”.
